{"source": "PubChem BioAssay AID1259414 (Drosophila RNAi Screening Center, 2018)", "assay": "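Genome-wide screen for host control of endosymbiont load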 (primary screen)", "cells": "Drosophila JW18 cells infected with Wolbachia", "reagent": "long dsRNA against Drosophila genes, 0.25 µg dsRNA per well of a 384-well plate", "duration": "5 days", "conditions": "cells persistently infected with Wolbachia before knock-down; no added drug", "read-out": "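Automated imaging of bacterial rRNA staining divided by host cell count, reported as plate-normalised robust z-score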", "reading the numbers": "Wolbachia per cell robust z: higher = more Wolbachia per host cell than the plate typical", "call rule": "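Active if absolute robust z reaches 1.5 in two or more of three replicates, leaving out multi- or no-target dsRNAs, genes unexpressed in JW18 and A1 wells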", "note": "In all, the deposit lists about 24,000 reagents; shown is an unselected part of those with a known target gene and a result. Over the whole deposit, about 1,210 (5%) were called active. 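Inactive calls also include excluded dsRNAs with several or no targets, genes unexpressed in JW18, and well A1, regardless of score.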 Names joined by + are all predicted targets of the reagent."}
{"target gene": "Cpr65Eb", "dsRNA": "DRSC11026", "Wolbachia per cell robust z, rep 1": -0.456, "Wolbachia per cell robust z, rep 2": -3.91, "Wolbachia per cell robust z, rep 3": -0.267, "activity call": "inactive"}
{"target gene": "Cpr65Eb", "dsRNA": "DRSC23758", "Wolbachia per cell robust z, rep 1": -0.532, "Wolbachia per cell robust z, rep 2": 0.211, "Wolbachia per cell robust z, rep 3": -1.42, "activity call": "inactive"}
{"target gene": "CG3841", "dsRNA": "DRSC02730", "Wolbachia per cell robust z, rep 1": 0.141, "Wolbachia per cell robust z, rep 2": -0.449, "Wolbachia per cell robust z, rep 3": -0.382, "activity call": "inactive"}
{"target gene": "Vps45", "dsRNA": "DRSC16398", "Wolbachia per cell robust z, rep 1": 0.297, "Wolbachia per cell robust z, rep 2": -0.124, "Wolbachia per cell robust z, rep 3": -4.56, "activity call": "inactive"}
{"target gene": "Cdlc2", "dsRNA": "DRSC00743", "Wolbachia per cell robust z, rep 1": 0.509, "Wolbachia per cell robust z, rep 2": 0.716, "Wolbachia per cell robust z, rep 3": -0.45, "activity call": "inactive"}
{"target gene": "Cdlc2", "dsRNA": "DRSC24865", "Wolbachia per cell robust z, rep 1": 1.14, "Wolbachia per cell robust z, rep 2": 0.437, "Wolbachia per cell robust z, rep 3": 0.746, "activity call": "inactive"}
{"target gene": "cni", "dsRNA": "DRSC03512", "Wolbachia per cell robust z, rep 1": 0.365, "Wolbachia per cell robust z, rep 2": -0.186, "Wolbachia per cell robust z, rep 3": -0.936, "activity call": "inactive"}
{"target gene": "CG44251 + CG44250", "dsRNA": "DRSC06856", "Wolbachia per cell robust z, rep 1": -1.81, "Wolbachia per cell robust z, rep 2": -0.478, "Wolbachia per cell robust z, rep 3": -0.498, "activity call": "inactive"}
{"target gene": "CG44251 + CG44250", "dsRNA": "DRSC24631", "Wolbachia per cell robust z, rep 1": -0.576, "Wolbachia per cell robust z, rep 2": -0.0186, "Wolbachia per cell robust z, rep 3": 1.7, "activity call": "inactive"}
{"target gene": "CG9147", "dsRNA": "DRSC03147", "Wolbachia per cell robust z, rep 1": 0.0685, "Wolbachia per cell robust z, rep 2": 0.252, "Wolbachia per cell robust z, rep 3": -0.434, "activity call": "inactive"}
{"target gene": "CG9147", "dsRNA": "DRSC27889", "Wolbachia per cell robust z, rep 1": -0.277, "Wolbachia per cell robust z, rep 2": -1.61, "Wolbachia per cell robust z, rep 3": -0.447, "activity call": "inactive"}
{"target gene": "TwdlP", "dsRNA": "DRSC14734", "Wolbachia per cell robust z, rep 1": 0.312, "Wolbachia per cell robust z, rep 2": -1.61, "Wolbachia per cell robust z, rep 3": -2.17, "activity call": "inactive"}
{"target gene": "inaD", "dsRNA": "DRSC04694", "Wolbachia per cell robust z, rep 1": -5.39, "Wolbachia per cell robust z, rep 2": -4.78, "Wolbachia per cell robust z, rep 3": -1.01, "activity call": "active"}
{"target gene": "inaD", "dsRNA": "DRSC27116", "Wolbachia per cell robust z, rep 1": 0.845, "Wolbachia per cell robust z, rep 2": 0.618, "Wolbachia per cell robust z, rep 3": -2.34, "activity call": "inactive"}
{"target gene": "ETH + asRNA:CR43257", "dsRNA": "DRSC04612", "Wolbachia per cell robust z, rep 1": 0.24, "Wolbachia per cell robust z, rep 2": 0.0036, "Wolbachia per cell robust z, rep 3": -0.407, "activity call": "inactive"}
{"target gene": "CG17343", "dsRNA": "DRSC02606", "Wolbachia per cell robust z, rep 1": -1.37, "Wolbachia per cell robust z, rep 2": -5.69, "Wolbachia per cell robust z, rep 3": 1.17, "activity call": "inactive"}
{"target gene": "CG17343", "dsRNA": "DRSC22807", "Wolbachia per cell robust z, rep 1": -0.797, "Wolbachia per cell robust z, rep 2": 0.118, "Wolbachia per cell robust z, rep 3": -1.13, "activity call": "inactive"}
{"target gene": "CG17343", "dsRNA": "DRSC28706", "Wolbachia per cell robust z, rep 1": -1.75, "Wolbachia per cell robust z, rep 2": -1.76, "Wolbachia per cell robust z, rep 3": -2.73, "activity call": "inactive"}
{"target gene": "CG33225", "dsRNA": "DRSC03881", "Wolbachia per cell robust z, rep 1": 0.716, "Wolbachia per cell robust z, rep 2": -2.74, "Wolbachia per cell robust z, rep 3": 1.96, "activity call": "inactive"}
{"target gene": "CG8079", "dsRNA": "DRSC07070", "Wolbachia per cell robust z, rep 1": -0.995, "Wolbachia per cell robust z, rep 2": -1.87, "Wolbachia per cell robust z, rep 3": 0.692, "activity call": "inactive"}
{"target gene": "CG8079", "dsRNA": "DRSC07071", "Wolbachia per cell robust z, rep 1": 0.129, "Wolbachia per cell robust z, rep 2": 0.129, "Wolbachia per cell robust z, rep 3": 0.958, "activity call": "inactive"}
{"target gene": "CG7420", "dsRNA": "DRSC00704", "Wolbachia per cell robust z, rep 1": -1.02, "Wolbachia per cell robust z, rep 2": 0.0261, "Wolbachia per cell robust z, rep 3": -0.84, "activity call": "inactive"}
{"target gene": "CG7420", "dsRNA": "DRSC41528", "Wolbachia per cell robust z, rep 1": -0.923, "Wolbachia per cell robust z, rep 2": 0.113, "Wolbachia per cell robust z, rep 3": 1.02, "activity call": "inactive"}
{"target gene": "Hexo2", "dsRNA": "DRSC18671", "Wolbachia per cell robust z, rep 1": -0.787, "Wolbachia per cell robust z, rep 2": -3.19, "Wolbachia per cell robust z, rep 3": -1.37, "activity call": "inactive"}
{"target gene": "mGluR", "dsRNA": "DRSC17215", "Wolbachia per cell robust z, rep 1": -0.245, "Wolbachia per cell robust z, rep 2": 0.26, "Wolbachia per cell robust z, rep 3": 0.752, "activity call": "inactive"}
{"target gene": "CG9782", "dsRNA": "DRSC19145", "Wolbachia per cell robust z, rep 1": 0.758, "Wolbachia per cell robust z, rep 2": 0.516, "Wolbachia per cell robust z, rep 3": -0.482, "activity call": "inactive"}
{"target gene": "CG9782", "dsRNA": "DRSC20209", "Wolbachia per cell robust z, rep 1": -0.847, "Wolbachia per cell robust z, rep 2": 1.2, "Wolbachia per cell robust z, rep 3": 0.796, "activity call": "inactive"}
{"target gene": "CG9782", "dsRNA": "DRSC25115", "Wolbachia per cell robust z, rep 1": 0.236, "Wolbachia per cell robust z, rep 2": -0.224, "Wolbachia per cell robust z, rep 3": -0.136, "activity call": "inactive"}
{"target gene": "CG13124", "dsRNA": "DRSC02220", "Wolbachia per cell robust z, rep 1": -8.46, "Wolbachia per cell robust z, rep 2": 0.598, "Wolbachia per cell robust z, rep 3": -1.32, "activity call": "inactive"}
{"target gene": "CG13124", "dsRNA": "DRSC27328", "Wolbachia per cell robust z, rep 1": -0.596, "Wolbachia per cell robust z, rep 2": -1.09, "Wolbachia per cell robust z, rep 3": -0.569, "activity call": "inactive"}

5 neighbouring records from above, quoted:
{"target gene": "CG9782", "dsRNA": "DRSC19145", "Wolbachia per cell robust z, rep 1": 0.758, "Wolbachia per cell robust z, rep 2": 0.516, "Wolbachia per cell robust z, rep 3": -0.482, "activity call": "inactive"}
{"target gene": "CG9782", "dsRNA": "DRSC20209", "Wolbachia per cell robust z, rep 1": -0.847, "Wolbachia per cell robust z, rep 2": 1.2, "Wolbachia per cell robust z, rep 3": 0.796, "activity call": "inactive"}
{"target gene": "CG9782", "dsRNA": "DRSC25115", "Wolbachia per cell robust z, rep 1": 0.236, "Wolbachia per cell robust z, rep 2": -0.224, "Wolbachia per cell robust z, rep 3": -0.136, "activity call": "inactive"}
{"target gene": "CG13124", "dsRNA": "DRSC02220", "Wolbachia per cell robust z, rep 1": -8.46, "Wolbachia per cell robust z, rep 2": 0.598, "Wolbachia per cell robust z, rep 3": -1.32, "activity call": "inactive"}
{"target gene": "CG13124", "dsRNA": "DRSC27328", "Wolbachia per cell robust z, rep 1": -0.596, "Wolbachia per cell robust z, rep 2": -1.09, "Wolbachia per cell robust z, rep 3": -0.569, "activity call": "inactive"}
